Laboratory results from patent publication US7119073B2, “Peptides and their use as inhibitors of hepatitis C virus ns3 protease” (Istituto Di Ricerche Di Biologia Molecolare P. Angeletti SpA, priority 2001, dated 2006).

Chains of the proteins cited; added tags and fusions are not shown. Lines headed by an entry give the natural chain unless they say otherwise; changes in a name come on top. Residues count along the entry.
UniProt P26663, 1027-1657 limits assumed: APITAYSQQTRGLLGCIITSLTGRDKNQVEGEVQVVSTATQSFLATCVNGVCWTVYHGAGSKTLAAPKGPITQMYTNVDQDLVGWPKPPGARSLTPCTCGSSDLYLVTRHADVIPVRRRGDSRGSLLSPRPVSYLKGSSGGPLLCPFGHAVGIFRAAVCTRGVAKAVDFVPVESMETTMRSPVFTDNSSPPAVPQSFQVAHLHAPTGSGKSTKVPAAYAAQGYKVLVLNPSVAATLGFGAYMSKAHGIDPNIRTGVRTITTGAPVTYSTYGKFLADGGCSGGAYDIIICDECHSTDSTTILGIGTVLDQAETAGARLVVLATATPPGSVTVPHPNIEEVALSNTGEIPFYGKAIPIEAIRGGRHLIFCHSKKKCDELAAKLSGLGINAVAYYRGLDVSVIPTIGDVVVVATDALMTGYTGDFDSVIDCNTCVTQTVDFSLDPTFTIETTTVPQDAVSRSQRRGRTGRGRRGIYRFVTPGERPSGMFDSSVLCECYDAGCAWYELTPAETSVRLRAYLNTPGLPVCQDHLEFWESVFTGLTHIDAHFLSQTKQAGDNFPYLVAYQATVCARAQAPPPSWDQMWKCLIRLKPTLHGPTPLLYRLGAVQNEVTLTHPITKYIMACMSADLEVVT
UniProt P26663, 1658-1711 partner limits assumed: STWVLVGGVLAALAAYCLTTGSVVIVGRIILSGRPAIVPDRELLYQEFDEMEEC
UniProt P26663, 1027-1206 limits assumed: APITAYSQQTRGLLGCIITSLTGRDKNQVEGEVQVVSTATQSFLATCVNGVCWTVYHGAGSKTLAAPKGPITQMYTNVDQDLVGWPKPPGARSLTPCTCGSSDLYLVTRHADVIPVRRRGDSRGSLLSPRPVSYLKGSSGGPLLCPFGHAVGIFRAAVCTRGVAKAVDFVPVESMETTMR

target: full length NS3 protein noncovalently complexed with the full-length NS4A cofactor protein (NS3/NS4A complex) (Hepatitis C virus genotype 1b, UniProt P26663); assay: Full-length NS3-NS4A heterodimer protein assay (Assay A); conditions: read-out: Assay A, Table 6
Method: Full-Length NS3-NS4A Heterodimer Protein Assay (Assay A)
(Gallinari, P., Paolini, C., Brennan, D., Nardi, C., Steinkühler, C. and De Francesco, R. Modulation of hepatitis C virus NS3 protease and helicase activities through the interaction with NS4A. Biochemistry 38, 5620–5632, 1999)
In this assay the full length NS3 protein spanning residues 1027–1657 of the HCV polyprotein, noncovalently complexed with the full-length NS4A cofactor protein (residues 1658–1711) was used. Assays were performed in 60 μl of a buffer containing 50 mM Hepes pH 7.5, 0.15 M NaCl, 0.1% (v/v) Triton X-100, 15% (v/v) glycerol, 10 mM DTT, 2 nM NS3/NS4A complex. To this assay mix 10 μM (final concentration) of a peptide substrate corresponding to the NS5AB cleavage site and having the sequence of the NS5A-NS5B peptide, were added. Incubation times at 23° C. were adjusted to obtain <10% conversion. Reactions were stopped by the addition of 40 μl of 1% TFA. Cleavage was determined by HPLC using a Merck-Hitachi chromatograph equipped with an autosampler. 80 μl samples were injected on a Lichrospher C18 reversed phase cartridge column (4×74 mm, 5 μm, Merck) and fragments were separated using a 10–40% acetonitrile gradient at 5%/min using a flow rate of 2.5 ml/min. Peak detection was done by monitoring both the absorbance at 220 nm and tryptophan fluorescence (λex=280 nm, λem=350 nm). Cleavage products were quantitated by integration of chromatograms with respect to appropriate standards. Kinetic parameters were calculated from nonlinear least-squares fit of initial rates as a function of substrate concentration with the help of a Kaleidagraph software, assuming Michaelis-Menten kinetics.
Ki values of peptide inhibitors were calculated from substrate titration experiments performed in the presence of increasing amounts of inhibitor. Experimental data sets were simultaneously fitted to eg.1 using a multicurve fit macro with the help of a Sigmaplot software: V=(VmaxS)/(Km([…])+S); (eq.1) Alternatively, Ki values were derived from IC50 values, calculated using a four-parameter logistic function, according to eq.2: IC50=(1+S/Km)Ki (eq.2)

Structure (SMILES) | IC50 [µM]
CC(C)[C@H](O)C(=O)N1C[C@H](OCc2ccc(-c3ccccc3)cc2)C[C@H]1C(=O)N[C@@H](CC(F)F)C(=O)NCCc1c(F)cc(C(=O)O)cc1F | < 100
CC(C)[C@H](O)C(=O)N1C[C@H](c2ccccc2)C[C@H]1C(=O)N[C@@H](CC(F)F)C(=O)NCCc1c(F)cc(-c2nn[nH]n2)cc1F | < 100
CC(C)[C@H](O)C(=O)N1C[C@H](OCc2ccc(Cl)c(Cl)c2)C[C@H]1C(=O)N[C@@H](CC(F)F)C(=O)NCCc1c(F)cc(C(=O)O)cc1F | < 100
CC(C)[C@H](O)C(=O)N1C[C@H](OC2CCCCC2)C[C@H]1C(=O)N[C@@H](CC(F)F)C(=O)NCCc1c(F)cc(C(=O)O)cc1F | < 100
CC(C)(C)[C@H](O)C(=O)N1C[C@H](c2ccccc2)C[C@H]1C(=O)N[C@@H](CC(F)F)C(=O)NCCc1c(F)cc(C(=O)O)cc1F | < 100
O=C(O)c1cc(F)c(CCNC(=O)[C@H](CC(F)F)NC(=O)[C@@H]2C[C@@H](c3ccccc3)CN2C(=O)CC2CCCC2)c(F)c1 | < 100
CC(C)[C@H](O)C(=O)N1C[C@H](OCc2ccccc2Cl)C[C@H]1C(=O)N[C@@H](CC(F)F)C(=O)NCCc1c(F)cc(C(=O)O)cc1F | < 100
CC(C)C[C@H](O)C(=O)N1C[C@H](c2ccccc2)C[C@H]1C(=O)N[C@@H](CC(F)F)C(=O)NCCc1c(F)cc(C(=O)O)cc1F | < 100
CC(C)[C@H](O)C(=O)N1C[C@H](OCc2noc(C(C)(C)C)n2)C[C@H]1C(=O)N[C@@H](CC(F)F)C(=O)NCCc1c(F)cc(C(=O)O)cc1F | < 100
CC(C)[C@H](O)C(=O)N1C[C@H](OCc2ccc(Br)cc2)C[C@H]1C(=O)N[C@@H](CC(F)F)C(=O)NCCc1c(F)cc(C(=O)O)cc1F | < 100
CC(C)(C)OC(=O)c1cc(F)c(CCNC(=O)[C@H](CC(F)F)NC(=O)[C@@H]2C[C@@H](c3ccccc3)CN2C(=O)Cc2ccncc2)c(F)c1 | < 100
CC(C)[C@H](O)C(=O)N1C[C@H](c2ccccc2)C[C@H]1C(=O)N[C@@H](CC(F)F)C(=O)NCCc1ccc(-c2nn[nH]n2)cc1 | < 100
CC(C)[C@H](O)C(=O)N1C[C@H](OCc2ccccc2)C[C@H]1C(=O)N[C@@H](CC(F)F)C(=O)NCCc1c(F)cc(C(=O)O)cc1F | < 100
CC(C)[C@H](O)C(=O)N1C[C@H](OC(C)(C)C)C[C@H]1C(=O)N[C@@H](CC(F)F)C(=O)NCCc1c(F)cc(C(=O)O)cc1F | < 100
CC(C)[C@H](O)C(=O)N1C[C@H](OCC2CC2)C[C@H]1C(=O)N[C@@H](CC(F)F)C(=O)NCCc1c(F)cc(C(=O)O)cc1F | < 100
CC(C)[C@H](O)C(=O)N1C[C@H](SCc2ccccc2)C[C@H]1C(=O)N[C@@H](CC(F)F)C(=O)NCCc1c(F)cc(C(=O)O)cc1F | < 100
CC(C)[C@H](O)C(=O)N1C[C@H](c2ccccc2)C[C@H]1C(=O)N[C@@H](CC(F)F)C(=O)NCCc1c(F)cc(C(=O)O)cc1F | < 100

Structure (SMILES) | IC50 [µM]
CCC(CC)CO[C@@H]1C[C@@H](C(=O)N[C@@H](CC(F)F)C(=O)NCCc2c(F)cc(C(=O)O)cc2F)N(C(=O)[C@@H](O)C(C)C)C1 | < 100
CCCCCC(CC)C(O)C(=O)N1C[C@H](c2ccccc2)C[C@H]1C(=O)N[C@@H](CC(F)F)C(=O)NCCc1c(F)cc(C(=O)O)cc1F (some centres unmarked) | < 100
CCC(C)[C@@H](O)C(=O)N1C[C@H](c2ccccc2)C[C@H]1C(=O)N[C@@H](CC(F)F)C(=O)NCCc1c(F)cc(C(=O)O)cc1F (some centres unmarked) | < 100
CC(C)CC(=O)N1C[C@H](c2ccccc2)C[C@H]1C(=O)N[C@@H](CC(F)F)C(=O)NCCc1c(F)cc(C(=O)O)cc1F | < 100
CC(C)[C@H](O)C(=O)N1C[C@H](c2ccccc2)C[C@H]1C(=O)N[C@@H](CC(F)F)C(=O)NCCc1ccc(-c2noc(=O)[nH]2)cc1 | < 100
O=C(O)c1cc(F)c(CCNC(=O)[C@H](CC(F)F)NC(=O)[C@@H]2C[C@@H](c3ccccc3)CN2C(=O)[C@@H](O)C2CCCC2)c(F)c1 | < 100
CC(C)[C@H](O)C(=O)N1C[C@H](C2CCCCC2)C[C@H]1C(=O)N[C@@H](CC(F)F)C(=O)NCCc1c(F)cc(C(=O)O)cc1F | < 100
O=C(O)c1cc(F)c(CCNC(=O)[C@H](CC(F)F)NC(=O)[C@@H]2C[C@@H](c3ccccc3)CN2C(=O)Cc2sc(O)nc2O)c(F)c1 | < 100
O=C(O)CCC(=O)N1C[C@H](c2ccccc2)C[C@H]1C(=O)N[C@@H](CC(F)F)C(=O)NCCc1c(F)cc(C(=O)O)cc1F | < 100
O=C(O)c1cc(F)c(CCNC(=O)[C@H](CC(F)F)NC(=O)[C@@H]2C[C@@H](c3ccccc3)CN2C(=O)Cc2cccs2)c(F)c1 | < 100
O=C(O)c1cc(F)c(CCNC(=O)[C@H](CC(F)F)NC(=O)[C@@H]2C[C@@H](c3ccccc3)CN2C(=O)C(O)C2CC2)c(F)c1 (some centres unmarked) | < 100
O=C(O)c1cc(F)c(CCNC(=O)[C@H](CC(F)F)NC(=O)[C@@H]2C[C@@H](c3ccccc3)CN2C(=O)[C@@H](O)c2ccccc2)c(F)c1 | < 100
CCC(CC)C(O)C(=O)N1C[C@H](c2ccccc2)C[C@H]1C(=O)N[C@@H](CC(F)F)C(=O)NCCc1c(F)cc(C(=O)O)cc1F (some centres unmarked) | < 100
O=C(O)c1cc(F)c(CCNC(=O)[C@H](CC(F)F)NC(=O)[C@@H]2C[C@@H](c3ccccc3)CN2C(=O)[C@@H](O)C2CCCCC2)c(F)c1 | < 100
CCC(C)[C@H](O)C(=O)N1C[C@H](c2ccccc2)C[C@H]1C(=O)N[C@@H](CC(F)F)C(=O)NCCc1c(F)cc(C(=O)O)cc1F (some centres unmarked) | < 100
O=C(O)c1cc(F)c(CCNC(=O)[C@H](CC(F)F)NC(=O)[C@@H]2C[C@@H](c3ccccc3)CN2C(=O)[C@H](O)C2CCCC2)c(F)c1 | < 100
CC(C)=CCO[C@@H]1C[C@@H](C(=O)N[C@@H](CC(F)F)C(=O)NCCc2c(F)cc(C(=O)O)cc2F)N(C(=O)[C@@H](O)C(C)C)C1 | < 100

same assay, conditions: read-out: AssayA, Table 5

Structure (SMILES) | IC50 [µM]
CC(C)COC(=O)N[C@H](C(=O)N1C[C@H](c2ccccc2)C[C@H]1C(=O)N[C@@H](CC(F)F)C(=O)NCCc1c(F)cc(C(=O)O)cc1F)C(C)C | < 1
CC(C)[C@H](NC(=O)OCC(C)(C)C)C(=O)N1C[C@H](C2CCCCC2)C[C@H]1C(=O)N[C@@H](CC(F)F)C(=O)NCCc1c(F)cc(C(=O)O)cc1F | < 1
CC(C)COC(=O)N[C@H](C(=O)N1C[C@H](c2ccccc2)C[C@H]1C(=O)N[C@@H](CS)C(=O)NCCc1ccc(C(=O)O)cc1Cl)C1CCCC1 | < 1
CC(C)COC(=O)N[C@H](C(=O)N1C[C@H](C2CCCCC2)C[C@H]1C(=O)N[C@@H](CC(F)F)C(=O)NCCc1c(F)cc(-c2nn[nH]n2)cc1F)C(C)C | < 1
CC(C)COC(=O)N[C@H](C(=O)N1C[C@H](SC2CCCCC2)C[C@H]1C(=O)N[C@@H](CC(F)F)C(=O)NCCc1c(F)cc(C(=O)O)cc1F)C(C)C | < 10
CC(C)COC(=O)N[C@H](C(=O)N1C[C@H](C2CCCCC2)C[C@H]1C(=O)N[C@@H](CC(F)F)C(=O)NCCc1c(F)ccc(OC(C)C(=O)O)c1F)C(C)C (some centres unmarked) | < 1

target: NS3 protease domain complexed to a modified form of the NS4A peptide (Pep4AK) (Hepatitis C virus genotype 1b, UniProt P26663); assay: HCV NS3 protease domain/NS4A cofactor peptide assay (Assay B); conditions: read-out: Assay B (IC50 class); NS3 protease domain/NS4A cofactor peptide assay
Excerpt: HCV NS3 Protease Domain/ NS4A Cofactor Peptide Assay (Assay B)
(Steinkühler, C., Biasiol, G., Brunetti, M., Urbani, A., Koch, U., Cortese, R., Pessi, A., and De Francesco, R. Product inhibition of the hepatitis C virus NS3 protease. Biochemistry 37, 8899–8905, 1998)
In this assay the NS3 protease domain (residues 1027–1206 of the HCV polyprotein) complexed to a modified form of the NS4A peptide, spanning residues 21–34 of the NS4A cofactor in addition to a solubilizing lys-tag, Pep 4AK were used. As substrate, peptide 4AB based on the sequence of the NS4A/NS4B cleavage site of the HCV polyprotein, was added.
Cleavage assays were performed in 60 μl 50 mM Hepes pH7.5, 1% (w/v) CHAPS, 15% (v/v) glycerol, 10 mM DTT (buffer A), containing 80 μM Pep4AK. Buffer solutions were preincubated for 10 min with 10–200 nM protease and reactions were started by addition of 10 μM substrate. Six duplicate data points at different substrate concentrations were used to calculate kinetic parameters. Incubation times were chosen in order to obtain <7% substrate conversion and reactions were stopped by addition of 40 μl 1% TFA. Reactions were analysed by HPLC essentially as described above. The fluorescence detector was set to monitor tyrosine fluorescence of substrate and cleavage product (λex=260 nm, λem=305 nm).

Structure (SMILES) | IC50 [µM]
CC(C)C[C@H](NC(=O)C1(Cc2ccsc2C(=O)O)Cc2ccccc2N1)C(=O)N[C@@H](CC(F)F)C(=O)NCCc1c(F)cc(C(=O)O)cc1F (single isomer, unassigned) [Compound 708b] | < 100
CC(C)C[C@H](NC(=O)C1(Cc2ccsc2C(=O)O)Cc2ccccc2N1)C(=O)N[C@@H](CS)C(=O)NCCc1ccc(C(=O)O)cc1 (some centres unmarked) | < 100

same assay, conditions: read-out: Assay B; Table 3; NS3 protease domain/Pep4AK

Structure (SMILES) | IC50 [µM]
CC(=O)N[C@H](C(=O)N[C@@H](CCC(=O)O)C(=O)N[C@@H](CC1CCCCC1)C(=O)N[C@@H](CS)C(=O)NCCc1ccccc1)C(c1ccccc1)c1ccccc1 | < 100
CC(=O)N[C@H](C(=O)N[C@@H](CCC(=O)O)C(=O)N[C@@H](CC1CCCCC1)C(=O)N[C@@H](CC(F)F)C(=O)NOCc1ccccc1)C(c1ccccc1)c1ccccc1 | < 100
